Anti-infective test results gathered from many reports (values: NIAID ChemDB through PubChem).

Shared fields: growth or infection tests; agent: Candida parapsilosis

MIC50, MIC90 and the like: level of inhibition, or share of isolates inhibited. ECn is the concentration giving n% inhibition of infection, replication or growth. Inhibition is in % at the dose shown (toxicity tests: loss of growth or viability). An empty or dashed field is not shown. Lines come from different laboratories, so protocols vary. Zone: diameter of growth inhibition.

O=[N+]([O-])c1ccc(/C=N\O)cc1 ; endpoint: MIC100 ; result: 3010 µM
CCCN(CCCOc1ccc(Br)cc1)CC(O)(Cn1cncn1)c1ccc(F)cc1F ; endpoint: EC80 ; result: >64 µg/mL
CC(=O)OC1CCN(CC(O)(Cn2cncn2)c2ccc(F)cc2F)CC1 ; read by: broth dilution ; strain: 0306392 ; endpoint: MIC80 ; result: 2.63 µM
CN(Cc1ccc(S(=O)(=O)N2CCOCC2)cc1)CC(O)(Cn1cncn1)c1ccc(F)cc1F ; read by: resazurin ; strain: CAPA1 ; endpoint: MIC ; result: 0.88 µg/mL
O/N=C\c1ccc(O)cc1 ; read by: broth dilution ; endpoint: MIC100 ; result: >7290 µM
CC(C)(O)c1cn(-c2cccc3ccccc23)nn1 ; tested at: 2048 µg/mL ; read by: broth dilution ; strain: URM 3621 ; endpoint: inhibition ; result: 0%
Clc1ccc(C(c2ccccc2)n2nnc3ccccc32)cc1 ; read by: broth dilution ; endpoint: MFC ; result: >256 µg/mL
CCOc1ccc2nc3cc(N=C4NC(=O)/C(=C\C=C\c5ccc([N+](=O)[O-])o5)S4)ccc3c(N)c2c1 ; read by: broth dilution ; endpoint: MFC ; result: >1000 µg/mL
Cc1ccccc1N1C(=O)CC(C)C1=O ; read by: broth dilution / turbidity ; strain: CCC 124-2000 ; endpoint: MIC ; result: 250 µg/mL
CCC(=O)OC1CCN(CC(O)(Cn2cncn2)c2ccc(F)cc2F)CC1 ; read by: broth dilution ; strain: 0306392 ; endpoint: MIC80 ; result: 0.634 µM
CC1CC(=O)N(CCCc2ccccc2)C1=O ; read by: broth dilution / turbidity ; strain: CCC 124-2000 ; endpoint: MIC ; result: 125 µg/mL
Nc1ncccc1-c1cc(Cc2ccc(COc3ccccn3)cc2)no1 ; read by: broth dilution ; endpoint: MIC90 ; result: 0.016 µg/mL
CCOC(=O)CN(CCCOc1ccccc1)CC(O)(Cn1cncn1)c1ccc(F)cc1F ; endpoint: EC80 ; result: >64 µg/mL
O=C(c1ccccc1)C(c1ccccc1)n1ccnc1 ; read by: agar ; endpoint: MIC90 ; result: >256 µg/mL
C=CC(C)(C)c1cc(C2CC(=O)c3c(cc(O)c(CC=C(C)C)c3O)O2)c(O)cc1O ; tested at: 2 mg/mL ; read by: agar diffusion / agar ; strain: hemoculture isolate 15760 ; endpoint: zone ; result: 12 mm
CC(C)(O)c1cn(-c2ccc3ccccc3c2)nn1 ; tested at: 2048 µg/mL ; read by: broth dilution ; strain: URM 4970 ; endpoint: inhibition ; result: 0%
C[C@@H]1CC(=O)N(CCCCc2ccccc2)C1=O ; read by: broth dilution / turbidity ; strain: CCC 124-2000 ; endpoint: MIC ; result: 62.5 µg/mL
CCCCCOc1ccc(-c2cc(-c3ccc(C(=O)N[C@H]4C[C@@H](O)[C@@H](O)NC(=O)[C@@H]5[C@@H](O)[C@@H](C)CN5C(=O)[C@H]([C@H](O)CC(N)=O)NC(=O)[C@H]([C@H](O)[C@@H](O)c5ccc(O)c(OS(=O)(=O)O)c5)NC(=O)[C@@H]5C[C@@H](O)CN5C(=O)[C@H]([C@@H](C)O)NC4=O)cc3)no2)cc1 ; read by: broth dilution ; endpoint: MIC90 ; result: 1 µg/mL
C[C@H]1[C@H](O)[C@@H](C)/C=C/C=C/C=C/C=C/C=C/C=C/C=C/[C@H](O[C@@H]2O[C@H](C)[C@@H](O)[C@H](N)[C@@H]2O)C[C@@H]2O[C@](O)(C[C@@H](O)C[C@@H](O)CC[C@H](O)[C@@H](O)C[C@@H](O)CC(=O)O[C@H]1C)C[C@H](O)[C@H]2C(=O)O ; tested at: 100 µg/disc ; read by: agar diffusion ; strain: Cp2 ; endpoint: zone ; result: 26 mm
C=CCc1ccc(O)c(OC)c1 ; read by: turbidity ; strain: 218 ; endpoint: MIC90 ; result: 485 µg/mL
CC(C)c1ccc(S(=O)(=O)Nc2ccc(CN(C)CC(O)(Cn3cncn3)c3ccc(F)cc3F)cc2)cc1 ; read by: resazurin ; strain: CAPA1 ; endpoint: MIC ; result: 0.15 µg/mL
Clc1ccc(C(c2ccccc2)n2ccnc2)cc1 ; read by: agar ; endpoint: MIC90 ; result: 8 µg/mL
C[C@@H]1C(=O)N(Cc2ccccc2)C(=O)[C@@H]1C ; read by: broth dilution / turbidity ; strain: CCC 124-2000 ; endpoint: MIC ; result: 62.5 µg/mL
Clc1ccc(C(c2ccccc2)n2cnc3ccccc32)cc1 ; read by: agar ; endpoint: MIC90 ; result: >256 µg/mL
CC[C@@H]([C@H](C)O)n1ncn(-c2ccc(N3CCN(c4ccc(OC[C@@H]5CO[C@@](Cn6cncn6)(c6ccc(F)cc6F)C5)cc4)CC3)cc2)c1=O ; read by: broth dilution ; endpoint: MIC90 ; result: 0.12 µg/mL
O=C1C(=O)c2ccccc2C2=C1CC(CI)O2 ; read by: broth dilution ; strain: Clinical isolate ; endpoint: MIC ; result: 16 µg/mL
O=C(/C=C/c1ccccc1F)OC1CCN(CC(O)(Cn2cncn2)c2ccc(F)cc2F)CC1 ; read by: broth dilution ; strain: 0306392 ; endpoint: MIC80 ; result: 0.129 µM
O/N=C\c1cccs1 ; endpoint: MIC100 ; result: 3930 µM
CC1C(=O)N(c2ccccc2)C(=O)C1C ; read by: broth dilution / turbidity ; strain: CCC 124-2000 ; endpoint: MIC ; result: 62.5 µg/mL
Clc1ccc(C(c2ccccc2)N2CCN(CCn3cncn3)CC2)cc1 ; read by: agar ; endpoint: MIC90 ; result: 64 µg/mL
Cc1ccc(-c2c3c(N)c4c(nc3nc3c2c(C)nn3-c2ccccc2)CCCC4)cc1 ; read by: broth dilution / absorbance ; strain: CCC 124 ; endpoint: MIC50 ; result: 31.2 µg/mL
COc1ccc(/C=C/C(=O)OC2CCN(CC(O)(Cn3cncn3)c3ccc(F)cc3F)CC2)cc1 ; read by: broth dilution ; strain: 0306392 ; endpoint: MIC80 ; result: 0.125 µM
C[C@@H]1CC(=O)N(c2ccccc2)C1=O ; read by: broth dilution / turbidity ; strain: CCC 124-2000 ; endpoint: MIC ; result: 62.5 µg/mL
O=C(COc1cccc2ccccc12)OC1CCN(CC(O)(Cn2cncn2)c2ccc(F)cc2F)CC1 ; read by: broth dilution ; strain: 0306392 ; endpoint: MIC80 ; result: 0.479 µM
CN(Cc1ccc(S(=O)(=O)Nc2ccc([N+](=O)[O-])cc2)cc1)CC(O)(Cn1cncn1)c1ccc(F)cc1F ; read by: resazurin ; strain: CAPA2 ; endpoint: MIC ; result: 0.73 µg/mL
COc1ccc(/C=C/C(=O)OC2CCN(CC(O)(Cn3cncn3)c3ccc(F)cc3F)CC2)cc1OC ; read by: broth dilution ; strain: 0306392 ; endpoint: MIC80 ; result: 0.118 µM
C[C@H]1[C@H](O)[C@@H](C)/C=C/C=C/C=C/C=C/C=C/C=C/C=C/[C@H](O[C@@H]2O[C@H](C)[C@@H](O)[C@H](N)[C@@H]2O)C[C@@H]2O[C@](O)(C[C@@H](O)C[C@@H](O)CC[C@H](O)[C@@H](O)C[C@@H](O)CC(=O)O[C@H]1C)C[C@H](O)[C@H]2C(=O)O ; read by: broth dilution / absorbance ; strain: CCC 124 ; endpoint: MIC100 ; result: 0.78 µg/mL
c1ccc(C(c2ccccc2)n2cnc3ccccc32)cc1 ; read by: agar ; endpoint: MIC90 ; result: >256 µg/mL
CC(C)C(=O)OC1CCN(CC(O)(Cn2cncn2)c2ccc(F)cc2F)CC1 ; read by: broth dilution ; strain: 0306392 ; endpoint: MIC80 ; result: 0.612 µM
CC(C)(O)c1cn(-c2ccc([N+](=O)[O-])cc2)nn1 ; tested at: 2048 µg/mL ; read by: broth dilution ; strain: URM 4889 ; endpoint: inhibition ; result: 0%
Cc1ccc(-c2c3c(N)c4c(nc3nc3c2c(C)nn3-c2ccccc2)CCC4)cc1 ; read by: broth dilution / absorbance ; strain: CCC 124 ; endpoint: MIC100 ; result: 125 µg/mL
CCC(C)CC(C)CCCCCCCCC(=O)N[C@H]1C[C@@H](O)[C@H](NCCN)NC(=O)[C@@H]2[C@@H](O)CCN2C(=O)[C@H]([C@H](O)CCN)NC(=O)[C@H]([C@H](O)[C@@H](O)c2ccc(O)cc2)NC(=O)[C@@H]2C[C@@H](O)CN2C(=O)[C@H]([C@@H](C)O)NC1=O ; read by: broth dilution ; endpoint: MIC90 ; result: 16 µg/mL
Cc1ccc(-n2cc(C(C)(C)O)nn2)cc1C ; tested at: 2048 µg/mL ; read by: broth dilution ; strain: URM 4607 ; endpoint: inhibition ; result: 0%
c1ccc(C(c2ccccc2)n2cncn2)cc1 ; read by: agar ; endpoint: MIC90 ; result: 64 µg/mL

Repeating the final 3 entries:

smiles,tested at,read by,strain,endpoint,result
CCC(C)CC(C)CCCCCCCCC(=O)N[C@H]1C[C@@H](O)[C@H](NCCN)NC(=O)[C@@H]2[C@@H](O)CCN2C(=O)[C@H]([C@H](O)CCN)NC(=O)[C@H]([C@H](O)[C@@H](O)c2ccc(O)cc2)NC(=O)[C@@H]2C[C@@H](O)CN2C(=O)[C@H]([C@@H](C)O)NC1=O,-,broth dilution,-,MIC90,16 µg/mL
Cc1ccc(-n2cc(C(C)(C)O)nn2)cc1C,2048 µg/mL,broth dilution,URM 4607,inhibition,0%
c1ccc(C(c2ccccc2)n2cncn2)cc1,-,agar,-,MIC90,64 µg/mL